Earlier results in patent US20240350385A1 (priority 2023, published 2024).

Tested on: palmar hyperhidrosis
Conditions: injections, for three weeks to six months

## onabotulinum toxin A
  sweat reduction: 25-50%
